What all share (assay): EMSA
(Mobility shift assays separate free from complexed probe on a gel.)

For series [1], the system named is PdhR (MBP-PdhR) (Plesiomonas shigelloides). As to conditions: PdhR: 50 ng probe, 20 mM Tris-HCl pH 7.5, 100 mM KCl, 10 mM MgCl2, 5% glycerol, 2 mM DTT, 37 C 30 min, ArcA: 100 mM Tris-HCl pH 7.5, 10 mM MgCl2, 2 mM DTT, recombinant protein, residues 1-258, protein details: MBP (pMAL-c5X), probe letters rebuilt from the primers and the genome.
Series [2] relates to ArcA-P (phosphorylated ArcA) (Plesiomonas shigelloides). As to conditions: phosphorylated, PdhR: 50 ng probe, 20 mM Tris-HCl pH 7.5, 100 mM KCl, 10 mM MgCl2, 5% glycerol, 2 mM DTT, 37 C 30 min, ArcA: 100 mM Tris-HCl pH 7.5, 10 mM MgCl2, 2 mM DTT, recombinant protein, residues 1-238, protein details: His6 (pET-28a), probe letters rebuilt from the primers and the genome.
Series [3] relates to CRP (MBP-CRP) (Plesiomonas shigelloides). Particulars: cAMP 0.5 uM, PdhR: 50 ng probe, 20 mM Tris-HCl pH 7.5, 100 mM KCl, 10 mM MgCl2, 5% glycerol, 2 mM DTT, 37 C 30 min, ArcA: 100 mM Tris-HCl pH 7.5, 10 mM MgCl2, 2 mM DTT, recombinant protein, residues 1-210, protein details: MBP (pMAL-c5X), probe letters rebuilt from the primers and the genome.
The subject of series [4] is FNR (Plesiomonas shigelloides). As to conditions: PdhR: 50 ng probe, 20 mM Tris-HCl pH 7.5, 100 mM KCl, 10 mM MgCl2, 5% glycerol, 2 mM DTT, 37 C 30 min, ArcA: 100 mM Tris-HCl pH 7.5, 10 mM MgCl2, 2 mM DTT, recombinant protein, residues 1-249, protein details: His6 (pET-28a), probe letters rebuilt from the primers and the genome.

For some assays here: Negatives hold for the conditions tested. For some assays here: Construct, isoform or probe ends are uncertain for at least one entry.

Consider “AAAGTTGCTTAATTGGTTGCATAATTATTTTGTTTTTTGTCACAAAAAAAGAGTTTTTCCGGTATCTGCGCAGGTTATTAACGCGAAAATGAAATATCTCGTGTGGATAAAAAGTAGGCGAATGAGATTTCTGATGTATATAATTGCGTCAATAATGTGACGGCTGGTGTTGCTTAATGTGTCAAAAATCGCGAAGATAGCCTCGATTTCATAGTGATGAGATCCGCTTCTGAAACTTATTGCGATTTTACAAATTATTGCGTGTTACAAATTAAAGGGAGAGCTTGTTATCACTCTTGTTTAAGAGCTCGAAGCAAGCAGTTATGGAGGGGAGC (double strand) [tfoX promoter]”, for which the binding result in series [1] was “no binding”.
“ACCAAGCAAAATCACCCACCGGCAGTAAATCGACACCCGCCTCTTTTTGCAATGCCCAGTGACGCGCTCGTAATTGTTGACCACATGCCAATAATGCAGCCTGCTCAATCTCACCGGCCCAATACTGCTCTAATGCTTTTTTCAGCTCGCGATGCAATCCAATACGCGGAAATCCGAGGGTATGACTATGAATACTCATGCTTAACTCCATTTAGCCGTCCAGATGTTTACACATCTATAATTCACGGTTATGGTAAAACCAACAAACGGAAGTTATTCATGTGCATCATGAGCGAAATTCATGATGAGCCTTATTTGGTCAGGGA (double strand) [metR promoter]”: the binding result in series [1] is recorded as “binds”.
In the case of “GCATGCTCCTATGACACAGCGCATTCATGAGGGAAATATAGCCACCAAATTCCGGTTAACACTGTATTACTATTGTTCACCGTTTATCACGGTTCTGCGACCAAGTGTTGCTGATGTGCTGAGTATGCAAAATCAGCGTTAAATGGTAATACCCCGAAAGAGGTGACTAGCGGGTAACCTTGCGCAAGATCAATTCTTGGCACGGATTTTACGTGACCTAGATCTCTGAATCACAACAGAAAATTGGGGCGAAGCACGCCGCTTTTGTCTGACATATTAGCAAGACCAAGTGGGCTAAAATGCACGTTCAACCGCGTGTTGAAACACGGCACGTTGAAAGAGTGCGCTT (double strand) [napF promoter]”, the binding result in series [1] is on record as “no binding”.
With “GCGCCACGATTTTACAACCTTGTTAAAATCTCGCAAACAATGTTGCACCCGTTGTGCCTTATTCGTCGGTGCGGTCACAGCTTAAGCCGAAACCGCACCGGATCTGTCTTACATCACCAGACGGCGGATGTCAGACAGCGCGTTGTTCAGGAATGTGATGAAGCGGGCACCGTCAGCGCCATCGATCACGCGGTGATCGTAAGACAGTGACAGAGGCAGCATCAGACGTGGTGCGAACTCTTTGCCGTTCCACTTCGGCTTCATCTCAGACTTGGACACACCCAGAATGGCCACTTCCGGCGCATTCACAATTGGAGT (double strand) [lpdA (lpd) promoter]”, the binding result in series [2] is reported as “binds”; in series [3], “no binding”; in series [4], “no binding”; in series [1], “no binding”.
Consider “TTGGGATCAATTTCGCCGACTGTCAATTGGTATTACCAATTTTACGGTGCGATAAAAATTACCAGAATCCCCAAAATGTGTCCAGACGAAAATTGATCTGAATCATGTTATACCGCCAATGGTAACAAAAACGCTTCAGCTAACATAACATTTGTCATACTTAAATTGGTCAGACCATTTAACGTTTGTCGTTTTAAACGCTTCGCTAAAGCTGTAACGAGTCAGCTTTATAACTGGCGGGAATAATCGGCCTTATTAGCGCGAAACTCGTATTTTTGGCTTATCGCGCTCAGGGAATTGACCTCCCGATCACGTACATAACCGCAGCACAAACCGTACATTCGCTGCTCAAATGTCACCTTTAGCGGGGA (double strand) [pdhR promoter]”, for which the binding result is on record as “binds” in series [2], “no binding” in series [3], “no binding” in series [4] and “binds” in series [1].

The record behind these values is publication PMC10572922.
